Here are results for one sequence from publication PMC12383022, “Discovery of a Novel Antimicrobial Peptide from Paenibacillus sp. Na14 with Potent Activity Against Gram-Negative Bacteria and Genomic Insights into Its Biosynthetic Pathway” (Antibiotics, 2025).

Where no end group is shown, it is not given here.

The nature of this series: Circular dichroism, secondary structure estimation (CONTINLL). Format: physicochemical. Conditions: CD, peptide 0.50 mg/mL, 25 °C.

As to LALLVVVKVLKYVV [Na14 peptide], under “50 mM SDS”, the “Random Coil content” value was 43.9% and the Turn content is reported as 15.7%. Also, for the setting “deionized H2O”, the “Random Coil content” value is listed as 56.8%, the Turn content is reported as 23.7%, the α-Helix content is 1.7% and the β-Strand content is 17.8%.
